## Library screen at single concentrations

Each number is a percent effect as filed. How 0% and 100% were set is not recorded. Most values in the screen are low, and negative values occur. The entries come from a sample that favours strong results.

A: 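Growth of Mycobacterium tuberculosis over 3 days (7H9 medium with glucose and tyloxapol); the read-out is not stated. Concentration: 500 µM. Direction is inferred from retests: higher values go with more growth inhibition. About 18,000 compounds were tested under these conditions; 7.9% (about 1,400) showed 50% or more at least once.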
B: 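Growth of Mycobacterium tuberculosis over 4 days (cholesterol / DPPC medium with tyloxapol); the read-out is not stated. Concentration: 500 µM. The record gives no direction; compounds that gave an IC50 in retests scored well above the rest, so higher reads as more growth inhibition. Size under these conditions: about 18,000 compounds, about 900 of them at 50% or above in at least one test.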

With CC(C)C1CN(C)CCN1Cc1ccc(C#N)o1 (configuration not stated) the screen gave A: 13.03%.
With CS(=O)(=O)N1CCCN(Cc2nccn2C2CC2)CC1 the screen gave A: 4.489%.
With COc1cccc(SCC(=O)N(C)[C@H]2COC[C@@H]2O)c1 the screen gave A: 12.13%.
With CC(C)(C)c1noc(CCC(=O)N2CCSCC2)n1 the screen gave A: 52.69%.
With NC(=O)c1ccc(CNS(=O)(=O)N2CCOCC2)cc1 the screen gave A: 0.3233%.
With Cn1ccc(COC(=O)CCc2ccccc2)cc1=O the screen gave A: 16.14%.
With N[C@@H]1C[C@H](O)[C@H]1n1cccn1 the screen gave B: 5.182%.
With Cc1cnn(CCNc2ccc(F)cn2)c1 the screen gave A: 53.28%; B: 46.06%.
With NC1CC12CCC(F)(F)CC2 (configuration not stated) the screen gave A: 12.5%.
With COC(=O)COC(C)(C)C the screen gave A: -5.255%.
With Cn1cc(C(C)(O)CNc2cccc(F)c2C#N)cn1 (configuration not stated) the screen gave B: 6.229%.
With Cc1nc(CN2CCN(C(=O)c3cnc[nH]3)CC2)cs1 the screen gave A: 13.33%.
With NCCc1nnc(N)s1 the screen gave A: -5.173%.
With CC(=O)c1cnccc1C the screen gave A: -3.32%.
With CCn1nc(C)cc1C(=O)NCCCc1ncc[nH]1 the screen gave B: -3.099%.
With CN(CCOc1ccc(Cl)cc1)C(=O)C(C)(C)CN the screen gave A: 84.49%; B: 65.96%.
With CC(C(=O)NCc1ccnc(N(C)C)c1)S(C)(=O)=O (configuration not stated) the screen gave A: 16.2%.
With O=C1CN(C(=O)c2ccccn2)c2ccncc2N1 the screen gave A: 4.821%.
With Cc1nc(C(C)C)sc1C(=O)N[C@H]1CC[C@H]1N the screen gave A: 10.62%.
With OCCOCCN1CCN(c2ccccc2F)CC1 the screen gave A: 4.336%; B: 2.104%.
With CCCN(CCC)C(=O)CN1CCCN(C(C)=O)CC1 the screen gave A: 4.551%.
With CC(C)(N)c1nc2c(c(=O)[nH]1)CCCCC2 the screen gave A: 7.51%.
With CCC(C)NC(=O)COC(=O)c1c(C)nsc1NC (configuration not stated) the screen gave A: 1.34%.
With CCn1cc(Br)c(=O)c(NC(=O)[C@@H]2CCCO2)c1 the screen gave A: 12.92%.
With O=C(CNC(=O)c1ccccc1)NCc1ccncc1 the screen gave A: -11.6%.
With NCC(O)c1c(Cl)cccc1Cl (configuration not stated) the screen gave A: 10.61%.
With N#Cc1ccc(CN2CCCSCC2)o1 the screen gave A: 32.69%.
With CC(C)N(C)C(=O)C1CCCNC1 (configuration not stated) the screen gave A: -8.093%.
With CSCCC(=O)NCc1ccc(C)s1 the screen gave A: 62.21%.
With Cc1occc1SCC(=O)NC1CCOCC1 the screen gave A: -4.667%.
With COc1cccc2c1OCCC2N (configuration not stated) the screen gave A: 5.665%.
With COC(CNC(=O)c1ccn(C)c(=O)c1)C(C)(C)C (configuration not stated) the screen gave A: 19.07%.
With Cc1ccc(CN(C)Cc2nccn2C)nc1 the screen gave B: 0.008237%.
With CC(C)n1cc(CN)nn1 the screen gave A: 3.961%.

Some entries from above, unchanged:

{"compound": "CC(C)N(C)C(=O)C1CCCNC1", "stereo": "configuration not stated", "A": -8.093}
{"compound": "COc1cccc(SCC(=O)N(C)[C@H]2COC[C@@H]2O)c1", "A": 12.13}
{"compound": "NC(=O)c1ccc(CNS(=O)(=O)N2CCOCC2)cc1", "A": 0.3233}

The values are deposited in ChEMBL (CHEMBL3988442, “University of Dundee, Small-Polar-MMV Screening Library” (2021)).